Test results: article PMC3898472, “Molecular Basis for DNA Double-Strand Break Annealing and Primer Extension by an NHEJ DNA Polymerase”
For at least one entry, the source does not settle the construct or the ends of the probe. At least one verdict rests on a figure or table, not on a statement of the authors.

Molecular target: Mt-PolDom (LigD polymerase domain) (UniProt P9WNV3)
Test: EMSA
Details: 200 nM protein; 5'-phosphate on DG; recombinant protein; residues 1-300; label: 32P 5'-end label

AGAAGTGTATCTAGTACTCACTGTGATC / GATCACAGTGAGTAC / AGATACACTTCT [1-nt gapped SP1C/T13C/DG-P]
binding result: binds
